# Reference: publication PMC9312377
# Legend:
# Test in all cases: Modified thermofluor assay, BXA-rPAN thermal stabilization
# [1] = target: recombinant A(H1N1)pdm09 PAN WT (Influenza A virus, UniProt C3W5S0, DEL51-57/DEL61-72/E59G); conditions: Panel A, WT, 37uM BXA
# [2] = test system: recombinant A(H3N2) PAN E23K+I38T
# [3] = target: recombinant A(H1N1)pdm09 PAN E23K (Influenza A virus, UniProt C3W5S0, DEL51-57/DEL61-72/E23K/E59G); conditions: for SYPRO Orange signal: 37uM BXA
smiles,measurement,setting,value
O=C1c2c(O)c(=O)ccn2N([C@@H]2c3ccccc3SCc3c2ccc(F)c3F)[C@@H]2COCCN12,SYPRO Orange signal,[1]; 94 °C,137119 RFU and 136440 RFU and 140604 RFU
same,SYPRO Orange signal,[1]; 95 °C,132430 RFU and 131876 RFU and 135323 RFU
same,SYPRO Orange signal,[1]; 96 °C,128202 RFU and 127247 RFU and 128149 RFU
same,SYPRO Orange signal,[1]; 97 °C,123762 RFU and 121687 RFU and 121268 RFU
same,SYPRO Orange signal,[1]; 98 °C,120477 RFU and 117521 RFU and 115008 RFU
same,SYPRO Orange signal,[1]; 99 °C,115966 RFU and 112142 RFU and 107473 RFU
same,Tm (°C) with BXA,"[2]; A(H3N2) PAN E23K+I38T 2 μM, BXA 37 μM",63 °C and 63.0 ± 0.6 °C
same,ΔTm (°C),"[2]; A(H3N2) PAN E23K+I38T, DMSO vs BXA 37 μM",14.3 ± 0.4 °C
same,SYPRO Orange signal,[3]; 31 °C,4802.38 RFU and 4597.62 RFU and 3153.29 RFU
same,SYPRO Orange signal,[3]; 32 °C,5108.32 RFU and 4714.24 RFU and 3229.87 RFU
same,SYPRO Orange signal,[3]; 33 °C,5252.5 RFU and 4880.88 RFU and 3144.43 RFU
same,SYPRO Orange signal,[3]; 34 °C,5404.43 RFU and 5368.69 RFU and 3433.06 RFU
same,SYPRO Orange signal,[3]; 35 °C,5189.53 RFU and 5447.54 RFU and 3347.38 RFU
same,SYPRO Orange signal,[3]; 36 °C,5586.58 RFU and 5876.74 RFU and 3882.72 RFU
same,SYPRO Orange signal,[3]; 37 °C,5229.86 RFU and 5469.68 RFU and 4034.94 RFU
same,SYPRO Orange signal,[3]; 38 °C,5600.84 RFU and 5511.01 RFU and 4112.51 RFU
same,SYPRO Orange signal,[3]; 39 °C,5422.3 RFU and 5457.99 RFU and 4113.91 RFU
same,SYPRO Orange signal,[3]; 40 °C,4839.35 RFU and 5542.91 RFU and 4371.9 RFU
same,SYPRO Orange signal,[3]; 41 °C,5295.9 RFU and 6076.9 RFU and 4372.86 RFU
same,SYPRO Orange signal,[3]; 42 °C,4813.77 RFU and 5873.16 RFU and 4443.73 RFU
same,SYPRO Orange signal,[3]; 43 °C,4871.92 RFU and 5890.36 RFU and 4495.08 RFU
same,SYPRO Orange signal,[3]; 44 °C,4883.76 RFU and 6033.89 RFU and 4425.93 RFU
same,SYPRO Orange signal,[3]; 45 °C,5567.31 RFU and 6682.12 RFU and 4694.6 RFU
same,SYPRO Orange signal,[3]; 46 °C,5112.28 RFU and 6428.95 RFU and 4686.32 RFU
same,SYPRO Orange signal,[3]; 47 °C,5288.66 RFU and 6663.52 RFU and 4409.52 RFU
same,SYPRO Orange signal,[3]; 48 °C,5694.89 RFU and 7189.27 RFU and 4828.11 RFU
same,SYPRO Orange signal,[3]; 49 °C,5732.35 RFU and 7406.94 RFU and 4397.76 RFU
same,SYPRO Orange signal,[3]; 50 °C,5882.68 RFU and 7861.75 RFU and 4750.06 RFU
same,SYPRO Orange signal,[3]; 51 °C,5998.24 RFU and 7853.98 RFU and 4338.35 RFU
same,SYPRO Orange signal,[3]; 52 °C,6715.91 RFU and 8681.37 RFU and 4399.8 RFU
same,SYPRO Orange signal,[3]; 65 °C,9108.07 RFU and 13632.9 RFU and 7221.77 RFU
same,SYPRO Orange signal,[3]; 66 °C,9658.71 RFU and 13966.8 RFU and 7652.35 RFU
same,Tm (°C) with BXA,"[3]; A(H1N1)pdm09 PAN E23K 2 μM, BXA 37 μM",74.0 ± 0.1 °C and 74 °C
same,ΔTm (°C),"[3]; A(H1N1)pdm09 PAN E23K, DMSO vs BXA 37 μM",23.0 ± 0.3 °C
same,SYPRO Orange signal,"[3]; Panel A, E23K, 67 °C",10088.8 RFU and 14784 RFU and 8455.19 RFU
same,SYPRO Orange signal,"[3]; Panel A, E23K, 68 °C",10830.8 RFU and 15248.5 RFU and 9746.09 RFU
same,SYPRO Orange signal,"[3]; Panel A, E23K, 69 °C",12592.3 RFU and 16776.5 RFU and 11210 RFU
same,SYPRO Orange signal,"[3]; Panel A, E23K, 70 °C",15410.9 RFU and 19342 RFU and 13502.7 RFU
same,SYPRO Orange signal,"[3]; Panel A, E23K, 71 °C",20281.6 RFU and 23593.1 RFU and 18288.3 RFU
same,SYPRO Orange signal,"[3]; Panel A, E23K, 72 °C",30042.8 RFU and 31928.9 RFU and 27392.5 RFU
same,SYPRO Orange signal,"[3]; Panel A, E23K, 73 °C",47206 RFU and 47559.1 RFU and 43327.3 RFU
same,SYPRO Orange signal,"[3]; Panel A, E23K, 74 °C",74720.4 RFU and 71161.1 RFU and 68706.6 RFU
same,SYPRO Orange signal,"[3]; Panel A, E23K, 75 °C",110514 RFU and 102604 RFU and 102006 RFU
same,SYPRO Orange signal,"[3]; Panel A, E23K, 76 °C",147350 RFU and 134812 RFU and 136774 RFU
same,SYPRO Orange signal,"[3]; Panel A, E23K, 77 °C",174563 RFU and 158368 RFU and 162376 RFU
same,SYPRO Orange signal,"[3]; Panel A, E23K, 78 °C",187002 RFU and 170633 RFU and 175725 RFU
same,SYPRO Orange signal,"[3]; Panel A, E23K, 79 °C",189866 RFU and 173453 RFU and 178292 RFU
same,SYPRO Orange signal,"[3]; Panel A, E23K, 80 °C",189065 RFU and 172956 RFU and 176966 RFU
same,SYPRO Orange signal,"[3]; Panel A, E23K, 81 °C",187142 RFU and 171063 RFU and 174216 RFU
same,SYPRO Orange signal,"[3]; Panel A, E23K, 82 °C",185522 RFU and 169458 RFU and 170822 RFU
same,SYPRO Orange signal,"[3]; Panel A, E23K, 83 °C",183160 RFU and 166954 RFU and 167616 RFU
same,SYPRO Orange signal,"[3]; Panel A, E23K, 84 °C",179838 RFU and 163102 RFU and 163949 RFU
same,SYPRO Orange signal,"[3]; Panel A, E23K, 85 °C",174772 RFU and 157530 RFU and 159945 RFU
same,SYPRO Orange signal,"[3]; Panel A, E23K, 86 °C",172451 RFU and 152920 RFU and 156234 RFU
same,SYPRO Orange signal,"[3]; Panel A, E23K, 87 °C",169203 RFU and 149203 RFU and 151924 RFU
same,SYPRO Orange signal,"[3]; Panel A, E23K, 88 °C",164340 RFU and 144984 RFU and 148070 RFU
same,SYPRO Orange signal,"[3]; Panel A, E23K, 89 °C",158675 RFU and 141028 RFU and 143669 RFU
same,SYPRO Orange signal,"[3]; Panel A, E23K, 90 °C",154483 RFU and 136330 RFU and 139550 RFU
same,SYPRO Orange signal,"[3]; Panel A, E23K, 91 °C",148403 RFU and 130854 RFU and 135324 RFU
same,SYPRO Orange signal,"[3]; Panel A, E23K, 92 °C",144125 RFU and 126719 RFU and 131240 RFU
same,SYPRO Orange signal,"[3]; Panel A, E23K, 93 °C",139362 RFU and 121781 RFU and 127357 RFU
same,SYPRO Orange signal,"[3]; Panel A, E23K, 94 °C",135546 RFU and 119063 RFU and 123079 RFU
same,SYPRO Orange signal,"[3]; Panel A, E23K, 95 °C",131231 RFU and 114217 RFU and 119408 RFU
same,SYPRO Orange signal,"[3]; Panel A, E23K, 96 °C",126749 RFU and 107435 RFU and 115890 RFU
same,SYPRO Orange signal,"[3]; Panel A, E23K, 97 °C",122606 RFU and 103438 RFU and 110833 RFU
same,SYPRO Orange signal,"[3]; Panel A, E23K, 98 °C",118644 RFU and 99944.6 RFU and 106727 RFU
same,SYPRO Orange signal,"[3]; Panel A, E23K, 99 °C",114330 RFU and 95776.5 RFU and 100709 RFU

# Where “and” joins values, the source holds several entries; their conditions need not be identical. Identical values can stand only once.
